Drawing on article PMC8262862, this text covers Kd for one substance.

For this experiment, the target named is H4 HA. Briefly: ELISA. (An ELISA detects its analyte on a solid surface through an enzyme-linked reagent.)

As to FI6v3, the Kd (as a rule, a measure of binding affinity in units of concentration) was found to be 0.61 nM.
